This assay concerns Escherichia coli. As to the kind of experiment: Induction of resistance development in Escherichia coli ATCC 25922 assessed as increase in MIC by microtiter plate reader assay. Type of assay: functional, organism-based. The procedure, abridged:
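Serial passage resistance assay with 2-fold microdilution MICs in 96-well plates. Each passage takes the well with the highest concentration still permitting growth, adjusts it to 0.5 McFarland, and dilutes it to a final 5 × 10^5 CFU/mL for the next passage. Eighteen passages; MIC recorded at each. Triplicate.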

Structures are written as SMILES. Active and inactive are the calls of the source. No cut-off for these calls is given here.

In the case of `O=C(O)c1cn(C2CC2)c2cc(N3CCNCC3)c(F)cc2c1=O`, the result was Active.

(Values after ChEMBL document CHEMBL5236607, “Membrane-Active Cyclic Amphiphilic Peptides: Broad-Spectrum Antibacterial Activity Alone and in Combination with Antibiotics” (J Med Chem, 2022).)
